Taken from: PubChem BioAssay AID1259414 (Drosophila RNAi Screening Center, 2018)
The deposit covers about 24,000 reagents; shown is an unselected part of those with a known target gene and a result. Of all reagents, about 1,210 (5%) got an active call. 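Inactive calls also include excluded dsRNAs with several or no targets, genes unexpressed in JW18, and well A1, regardless of score.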 A number with no mark means an inactive call. Reagents against one gene are numbered here. Names joined by + are all predicted targets of the reagent.

Purpose: 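Genome-wide screen for host control of endosymbiont load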 (primary screen)
Cells: Drosophila JW18 cells infected with Wolbachia
Reagents: long dsRNA against Drosophila genes, 0.25 µg dsRNA per well of a 384-well plate
Duration: 5 days
Treatment: cells persistently infected with Wolbachia before knock-down; no added drug
Measured: 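Automated imaging of bacterial rRNA staining divided by host cell count, reported as plate-normalised robust z-score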
Reading the numbers: Wolbachia per cell robust z: higher = more Wolbachia per host cell than the plate typical
Call rule: 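Active if absolute robust z reaches 1.5 in two or more of three replicates, leaving out multi- or no-target dsRNAs, genes unexpressed in JW18 and A1 wells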

target gene	reagent	Wolbachia per cell robust z, rep 1	Wolbachia per cell robust z, rep 2	Wolbachia per cell robust z, rep 3
Polr3E (RNA polymerase III subunit E)	1	1.19	-0.511	1.05
Polr3E (RNA polymerase III subunit E)	2	0.851	1.41	1.31
Rep (Rab escort protein)	1	0.888	0.42	-1.89
mRpL4 (mitochondrial ribosomal protein L4)	1	-0.369	-0.329	-1.48
MKP-4 (MAPK Phosphatase 4)	1	-1.72	-1.3	-0.275
MKP-4 (MAPK Phosphatase 4)	2	1.11	-0.617	-11.3
Qsox4 (Quiescin sulfhydryl oxidase 4)	1	-0.502	-1.56	1.11
Pif1B + Pif1A	1	-6.11	0.293	-0.148
Pif1B + Pif1A	2	-2.75	0.271	-5.23
CG14132	1	-1.29	-1.14	-0.0051
CG15414	1	-0.192	-1.02	-0.329
CG15414	2	-0.892	0.862	0.537
CG15414	3	0.419	-1.5	0.86
CG10953	1	0.00911	-0.329	0.476
CG44098	1	0.238	1.22	-0.539
CG44098	2	1.13	1.31	2.55
CG44098	3	1.39	-0.394	0.457
CG44098	4	1.35	0.632	1.21
CG44098	5	-0.245	-0.789	0.0103
CG44098	6	0.372	-1.33	-1.76
TwdlF (TweedleF)	1	0.762	-1.91	-0.751
TwdlF (TweedleF)	2	-0.632	0.648	-5.21
Trissin	1	0.456	-1.1	0.419
Acer (Angiotensin-converting enzyme-related)	1	0.968	-0.798	0.108
fau + CG45078 + CG45076	1	-0.259	0.0277	0.254
CG17196	1	1.18	-2.21	-5.98
slgA (sluggish A)	1	-0.208	-0.296	0.0802
slgA (sluggish A)	2	-0.0601	-0.276	-0.154

In a second layout: 2 of the entries above
{"target gene": "TwdlF (TweedleF)", "reagent": 2, "Wolbachia per cell robust z, rep 1": -0.632, "Wolbachia per cell robust z, rep 2": 0.648, "Wolbachia per cell robust z, rep 3": -5.21}
{"target gene": "Trissin", "reagent": 1, "Wolbachia per cell robust z, rep 1": 0.456, "Wolbachia per cell robust z, rep 2": -1.1, "Wolbachia per cell robust z, rep 3": 0.419}
